Measured values from several laboratories, pooled; numbers as filed in NIAID ChemDB.

Common to all: growth or infection tests; agent: Mycobacterium tuberculosis

MIC bound: limit read from a one-dose screen. Conditions beyond the fields shown may differ between rows. A number after MIC or MFC names an inhibition level or a share of isolates. Percent inhibition refers to the dose given; in toxicity tests it is the harm to the cells. ECn: concentration that inhibits the pathogen or its effect by n%. Blank or dashed fields: not listed here.

SMILES | strain or isolate | method | endpoint | tested at | value
CC(=O)NC[C@H]1CN(c2ccc(N3CCOCC3)c(F)c2)C(=O)O1 | 1R |  | MIC |  | 0.5 µg/mL
C[C@@H]1CN(c2c(F)c(N)c3c(=O)c(C(=O)O)cn(C4CC4)c3c2F)C[C@H](C)N1 | ATCC35838 |  | MIC |  | 0.03 µg/mL
CCCCCCCCCCCNCCNC1CCCCC1C |  |  | MIC |  | 50 µM
Cn1c(=O)sc2cc(C(=S)N3CCN(c4ccccc4)CC3)ccc21 | H37Rv | BACTEC | inhibition | 6.25 µg/mL | -1%
CC(C)CC(NC(N)=O)C(=O)O | H37Rv |  | MIC |  | 100 µg/mL
COc1ccc(OC)c(CCNCCNCC(c2ccccc2)c2ccccc2)c1 |  |  | MIC |  | 6.25 µM
O=C1CN=C(c2ccc[nH]2)c2cc(Cl)ccc2N1 | H37Rv | BACTEC | inhibition | 6.25 µg/mL | 0%
CO[C@H]1/C=C/O[C@@]2(C)Oc3c(C)c(O)c4c(=O)c(c5oc6cc(N7CCN(CC(C)C)CC7)cc(=O)c6nc5c4c3=C2O)NC(=O)/C(C)=C\C=C\[C@H](C)[C@H](O)[C@@H](C)[C@@H](O)[C@@H](C)[C@H](OC(C)=O)[C@@H]1C | 35 (rifampin-resistant) |  | MIC |  | 0.1 µg/mL
CC(O)c1cccc(N)c1 | H37Rv |  | MIC |  | 100 µg/mL
CO[C@H]1/C=C/O[C@@]2(C)Oc3c(C)c(O)c4c(O)c(c5c(c4c3C2=O)NC2(CCN(CC(C)C)CC2)N=5)=NC(=O)/C(C)=C\C=C\[C@H](C)[C@H](O)[C@@H](C)[C@@H](O)[C@@H](C)[C@H](OC(C)=O)[C@@H]1C | 3125 (rifampin-sensitive) |  | MIC |  | 0.012 µg/mL
NC(=O)c1ccc(N=N[O-])nc1.[Na+] | H37Rv | BACTEC | inhibition | 12.5 µg/mL | 33%
COc1ccc(C2CC(=O)c3cc(C(=O)O)ccc3O2)cc1 | H37Rv |  | inhibition | 12.5 µg/mL | 2%
C[C@H]1COc2c(N3CCN(C)CC3)c(F)cc3c(=O)c(C(=O)O)cn1c23 | 10S |  | MIC |  | 0.5 µg/mL
O=c1oc2ccc(Br)cc2c(=O)n1-c1cccc([N+](=O)[O-])c1 | CNCTC MY331/88 |  | MIC |  | 8 µM
CCCCOc1nc(N)nc(N2CCCCC2)n1 | H37Rv |  | MIC |  | 100 µg/mL
O=C(Nc1cc(Cl)cc(NC(=O)Oc2ccccc2)n1)Oc1ccccc1 | H37Rv |  | EC50 |  | <12.5 µg/mL
O=C1CC(c2ccc(O)c(O)c2)Oc2c1c(O)cc(O[C@@H]1O[C@H](CO)[C@@H](O)[C@H](O)[C@H]1O)c2C1C(=O)c2c(O)cc(O)cc2OC1c1ccc(O)cc1 |  |  | EC50 |  | >12.5 µg/mL
CCC(=O)c1ccc(N)cc1 | H37Rv |  | MIC |  | 25 µg/mL
O=C1OC(c2ccccc2)=N/C1=C\c1c(-c2ccccc2)c(-c2ccccc2)c2n1CCC2 | H37Rv | BACTEC | MIC bound |  | >12.5 µg/mL
CCOC(=O)Nc1cc(N[C@H](C)C(=O)c2ccccc2)c([N+](=O)[O-])c(N)n1 | H37Rv |  | EC50 |  | >12.5 µg/mL
C=C(C)C1CC2=C(O1)C(=O)c1ccccc1C2=O | H37Rv | resazurin | inhibition | 6.25 µg/mL | 99%
COc1ccc(C2CC(=O)c3cc(F)ccc3O2)cc1 |  |  | inhibition | 12.5 µg/mL | 0%
OCc1ccccc1Sc1ccccc1CNCCNCCCCc1ccccc1 |  |  | MIC |  | 25 µM
O=S(=O)(/N=C1C=C/C(=N\S(=O)(=O)c2ccccc2)C2C\1C2(c1ccccc1)c1ccccc1)c1ccccc1 | H37Rv | BACTEC | inhibition | 12.5 µg/mL | 30%
COc1ccc(CCC2CCc3ccccc3N2C)cc1OC | MT5 |  | MIC |  | 50 µg/mL
CCOC=C(C(=O)OCC)C(=O)OCC | H37Rv |  | MIC |  | >100 µg/mL
Nc1c(-c2ccccc2[N+](=O)[O-])nc2ccccn12 | H37Rv | BACTEC | MIC bound |  | >12.5 µg/mL
CCCCC(CC)CN1CN(CC(CC)CCCC)CC(C)(NCCN[C@H]2C[C@@H]2c2ccccc2)C1 |  |  | MIC |  | 50 µM
CCO/C(=N\O)C(=O)c1ccccc1Cl | H37Rv |  | MIC |  | >100 µg/mL
C[C@]12Cc3cn4ncnc4nc3CC1CC[C@@H]1[C@@H]2CC[C@]2(C)C(O)CC[C@@H]12 | H37Rv |  | inhibition | 6.25 µg/mL | 6%
CO[C@H]1/C=C/O[C@@]2(C)Oc3c(C)c(O)c4c(O)c(c5c(c4c3C2=O)NC2(CCN(CC(C)C)CC2)N=5)=NC(=O)/C(C)=C\C=C\[C@H](C)[C@H](O)[C@@H](C)[C@@H](O)[C@@H](C)[C@H](OC(C)=O)[C@@H]1C | Strain 139-151 (S531L/W/F) |  | MIC |  | 48 µg/mL
CCOC(=O)Nc1cc(N)c([N+](=O)[O-])c(N)n1 | H37Rv |  | EC50 |  | >12.5 µg/mL
CCOC([O-])=C([N+](=O)[O-])[N+](=O)[O-].[K+] | H37Rv |  | MIC |  | >100 µg/mL
COc1ccc2c(c1)[n+]([O-])c(C(N)=O)c(N)[n+]2[O-] | TAC-R |  | MIC |  | 6.3 µg/mL
CN[C@@H]1[C@H](O[C@H]2[C@H](O[C@H]3[C@H](O)[C@@H](O)[C@H](N=C(N)N)[C@@H](O)[C@@H]3N=C(N)N)O[C@@H](C)[C@]2(O)C=O)O[C@@H](CO)[C@H](O)[C@H]1O | 89996 |  | MIC |  | ≥2 µg/mL
CO[C@H]1/C=C/O[C@@]2(C)Oc3c(C)c(O)c4c(=O)c(c5oc6cc(N7CCN(CC(C)C)CC7)cc(=O)c6nc5c4c3=C2O)NC(=O)/C(C)=C\C=C\[C@H](C)[C@H](O)[C@@H](C)[C@@H](O)[C@@H](C)[C@H](OC(C)=O)[C@@H]1C | TN640 |  | MIC |  | >32 µg/mL
Nc1ccc(Cl)c(Cl)c1 | H37Rv |  | MIC |  | 100 µg/mL
CCn1c(O)c(N=NC(=N)SCC(C)C)c2ccccc21 | H37Rv | BACTEC | MIC |  | ≥12.8 µg/mL
CCCCC(CC)CN1CN(CC(CC)CCCC)CC(C)(NCCNC/C=C(\C)CCC=C(C)C)C1 |  |  | MIC |  | 50 µM
Cc1cc(S(=O)(=O)Nc2nc3[nH]ncc3c(=O)n2N)c(S)cc1Cl | H37Rv | resazurin | MIC bound |  | >6.25 µg/mL
Fc1ccc(CCNCCNC(c2ccccc2)c2ccccc2)cc1 |  |  | MIC |  | 50 µM
CC(=O)c1c(C)c(N)c(C)c(-c2c(C)c(N)c(C)c(C(C)=O)c2C)c1C | H37Rv |  | MIC |  | >100 µg/mL
CC(c1ccccc1)C1(C)NC(=O)NC1=O | H37Rv | BACTEC | MIC |  | ≥12.5 µg/mL
O=C1CC(c2ccc(Cl)cc2)Oc2ccccc21 | H37Rv |  | inhibition | 12.5 µg/mL | 7%
Cc1ccc2oc(=O)n(-c3ccccc3)c(=O)c2c1 | CNCTC MY331/88 |  | MIC |  | 32 µM
COc1ccc(CCc2cc(OC)c3ccccc3n2)cc1OC | MT10 |  | MIC |  | >310 µg/mL
CCOC(=O)Nc1cc(C[C@@H](C)[C@H](O)c2ccccc2)c(N)c(N)n1 | H37Rv |  | inhibition | 12.5 µg/mL | 0%
CC(C)c1ccc2c(c1)CC[C@H]1[C@](C)(CNCCNCc3ccccc3F)CCC[C@]21C |  |  | MIC |  | 12.5 µM
CC1(C)[C@H]2CC[C@@H](CNCCNCC(c3ccccc3)c3ccccc3)[C@@H]1C2 |  |  | MIC |  | 3.13 µM
CC[C@H]1OC(=O)[C@H](C)[C@@H](O[C@H]2C[C@@](C)(OC)[C@@H](O)[C@H](C)O2)[C@H](C)[C@@H](O[C@@H]2O[C@H](C)C[C@H](N(C)C)[C@H]2O)[C@](C)(O)C[C@@H](C)C(=O)[C@H](C)[C@@H](O)[C@]1(C)O | MDR |  | MBC90 |  | >8 µg/mL
CO[C@H]1/C=C/O[C@@]2(C)Oc3c(C)c(O)c4c(O)c(c(/C=N/N5CCN(C6CCCC6)CC5)c(O)c4c3C2=O)NC(=O)/C(C)=C\C=C\[C@H](C)[C@H](O)[C@@H](C)[C@@H](O)[C@@H](C)[C@H](O)[C@@H]1C | Isolate 900201 drug-susceptible |  | MIC |  | 0.25 µg/mL
Cc1ccc2c(c1)NC(c1ccc(C(=O)O)cc1)c1cccn1-2 | H37Rv | BACTEC | inhibition | 12.5 µg/mL | 18%
COc1ccc(CNCCNC[C@@H]2CC[C@H]3C[C@@H]2C3(C)C)c(OC)c1 |  |  | MIC |  | 50 µM
NC(=O)c1cnccn1 | Isolate 9769 monodrug-resistant |  | MIC |  | >300 µg/mL
Cc1ccc2oc(=O)n(-c3cccc([N+](=O)[O-])c3)c(=O)c2c1 | CNCTC MY331/88 |  | MIC |  | 16 µM
O=C1c2ccccc2C(=O)N1CCSSCCN1C(=O)c2ccccc2C1=O | H37Rv |  | MIC |  | >100 µg/mL
CCOC(=O)Nc1cc(NC(C)C(O)COc2ccccc2)c([N+](=O)[O-])c(N)n1 | H37Rv |  | EC50 |  | >12.5 µg/mL
FC(c1ccccc1)(c1ccccc1)c1ccccc1 | H37Rv |  | MIC |  | >100 µg/mL
C[C@H]1COc2c(N3CCN(C)CC3)c(F)cc3c(=O)c(C(=O)O)cn1c23 | MDR |  | MBC90 |  | 4 µg/mL
NC1=NCC(=O)N1 | H37Rv |  | MIC |  | >100 µg/mL
CC1COc2c(N3CCN(C)CC3)c(F)cc3c(=O)c(C(=O)O)cn1c23 | Drug-resistant |  | MIC90 |  | 1 µg/mL
CC(C)(CO)NCCNCc1ccccc1 |  |  | MIC |  | 50 µM
CC(C)c1ccc2c(c1)CC[C@H]1[C@](C)(CNCCNCCc3ccc(F)cc3)CCC[C@]21C |  |  | MIC |  | 25 µM
C1COCCN1 | H37Rv |  | MIC |  | >100 µg/mL
CC(=O)Nc1ccc(/C=C(\NC(=O)c2ccccc2)C(=O)NNS(=O)(=O)c2ccc(C)cc2)cc1 | H37Rv | BACTEC | MIC bound |  | >12.5 µg/mL
Nc1cc(S(=O)(=O)O)cc(C(=O)O)c1O | H37Rv |  | MIC |  | >100 µg/mL
Cl.O=C(COc1ccc(Cl)cc1)NN1CCCCCC1 | H37Rv | BACTEC | inhibition | 12.5 µg/mL | 20%
O=C(/C=C/c1ccccc1)c1ccc(I)cc1O |  |  | EC50 |  | >12.5 µg/mL
O=[N+]([O-])c1cccc(S(=O)(=O)Oc2ccccc2)c1 | H37Rv |  | MIC |  | 100 µg/mL
Cc1ccc(CNCCNCc2ccccc2)cc1 |  |  | MIC |  | 25 µM
NC(=O)c1ccc(N)cc1O | H37Rv |  | MIC |  | >100 µg/mL
Cc1ccc2c(=O)n(-c3ccc(Br)cc3)c(=O)oc2c1 | CNCTC MY331/88 |  | MIC |  | 16 µM
Nc1ccncc1 | H37Rv |  | MIC |  | >100 µg/mL
CC1CCCCC1NCCNCCC(c1ccccc1)c1ccccc1 |  |  | MIC |  | 6.25 µM
CCOC(=O)Nc1cc(NC(c2ccccc2)c2ccccc2)c2nc(-c3ccc(Cl)cc3)cnc2n1 | H37Rv |  | EC50 |  | >12.5 µg/mL
O=C(/C=C/c1ccccc1)c1cccc(I)c1O |  |  | inhibition | 12.5 µg/mL | 0%
CC1NOC(NS(=O)(=O)c2ccc(N=Nc3c(O)c(C(=O)O)cc4ccccc34)cc2)C1C | H37Rv | BACTEC | inhibition | 12.5 µg/mL | -10%
CC(C)=CCC/C(C)=C/CNCCNC(C)c1cccc2ccccc12 |  |  | MIC |  | 25 µM
COc1cc(N)ccc1C(=O)O | H37Rv |  | MIC |  | >100 µg/mL
Oc1ccc2ccccc2c1/C=N/Nc1ccc2ccccc2n1 | H37Rv | BACTEC | MIC bound |  | ≤12.5 µg/mL
Brc1ccc2c(c1)oc1c3cccnc3ccc21 | H37Rv |  | MIC |  | >100 µg/mL
CCN(CC)C(=S)[S][Sn]([S]C(=S)N(CC)CC)([c]1ccccc1)[c]1ccccc1 | PAS-R |  | MIC |  | 1.6 µg/mL
Cc1c(Br)c(Br)c(O)c(Br)c1Br | H37Rv |  | MIC |  | 100 µg/mL
CC1=C(C(=O)NCc2ccccc2)C(c2cccc([N+](=O)[O-])c2)C(C(=O)NCc2ccccc2)=C(C)N1 | H37Rv | resazurin | inhibition | 6.25 µg/mL | -3%
CCCCCC(C)NCCNCCCCc1ccccc1 |  |  | MIC |  | 25 µM
O=C1NN(C2=NNC3(C(=O)N2)c2ccccc2-c2ccccc23)C(c2ccccc2)=N/C1=C\c1ccc(Cl)cc1 | H37Rv | BACTEC | MIC bound |  | >12.5 µg/mL
CO[C@H]1/C=C/O[C@@]2(C)Oc3c(C)c(O)c4c(O)c(c(/C=N/N5CCN(C)CC5)c(O)c4c3C2=O)NC(=O)/C(C)=C\C=C\[C@H](C)[C@H](O)[C@@H](C)[C@@H](O)[C@@H](C)[C@H](OC(C)=O)[C@@H]1C | H37Rv |  | MIC |  | <2 µg/mL

Again, the opening 5 rows:

SMILES,strain or isolate,method,endpoint,tested at,value
CC(=O)NC[C@H]1CN(c2ccc(N3CCOCC3)c(F)c2)C(=O)O1,1R,,MIC,,0.5 µg/mL
C[C@@H]1CN(c2c(F)c(N)c3c(=O)c(C(=O)O)cn(C4CC4)c3c2F)C[C@H](C)N1,ATCC35838,,MIC,,0.03 µg/mL
CCCCCCCCCCCNCCNC1CCCCC1C,,,MIC,,50 µM
Cn1c(=O)sc2cc(C(=S)N3CCN(c4ccccc4)CC3)ccc21,H37Rv,BACTEC,inhibition,6.25 µg/mL,-1%
CC(C)CC(NC(N)=O)C(=O)O,H37Rv,,MIC,,100 µg/mL